Measured values from several laboratories, pooled; numbers as filed in NIAID ChemDB.

Common to all: growth or infection tests; species: Herpes simplex virus 1; method: cytopathic effect; read-out: EC50

Blank or dashed fields: not listed here. Lines come from different laboratories, so protocols vary. ECn is the concentration giving n% inhibition of infection, replication or growth.

| SMILES | cells | strain or isolate | value |
|---|---|---|---|
| CN(C)Cc1cn([C@H]2C[C@H](O)[C@@H](CO)O2)c(=O)[nH]c1=O | HSF | KOS | >200 µg/mL |
| Nc1nc2c(ncn2COCCO)c(=O)[nH]1 | VERO | K1R | 330 µM |
| Cc1cc([C@H]2C[C@H](O)[C@@H](CO)O2)c(F)cc1Cl | E6SM | F | >400 µg/mL |
| Nc1nc(N)c2ncn([C@H]3CO[C@H](CO)[C@@H](O)C3)c2n1 | E6SM | TK-/TK+ (VMW 1837) | >20 µg/mL |
| Nc1cc([C@H]2C[C@H](O)[C@@H](CO)O2)c(F)cc1F | E6SM | KOS/ACV-R | >400 µg/mL |
| Cc1cn([C@@H]2CO[C@H](CO)[C@@H](O)C2)c(=O)[nH]c1=O | E6SM | KOS | >20 µg/mL |
| C=C[C@@H](O)C1=C[C@@H](n2cnc3c(N)ncnc32)[C@H](O)[C@@H]1O | E6SM | B2006 (TK-) | >200 µg/mL |
| Nc1nc2c(ncn2CCC(CO)CO)c(=O)[nH]1 | VERO | K1 | 16.6 µM |
| COc1ncnc2c1ncn2[C@@H]1C[C@H](CO)[C@@H](O)[C@H]1O | VERO | HF | 7 µg/mL |
| CC(=O)OC[C@H]1C[C@@H](n2cc(Br)c(=O)[nH]c2=O)[C@H](OC(C)=O)C1 | PRK | 377 | 100 µg/mL |
| OC[C@H]1O[C@@H](c2cc(C(O)C(I)I)c(F)cc2F)C[C@@H]1O | E6SM | KOS | >80 µg/mL |
| C#C[C@H](O)C1=C[C@@H](n2cnc3c(N)ncnc32)[C@H](O)[C@@H]1O | E6SM | B2006 (TK-) | >100 µg/mL |
| COC(CI)c1cc([C@H]2C[C@H](O)[C@@H](CO)O2)c(F)cc1F | E6SM | KOS | >80 µg/mL |
| Cc1cn([C@@H]2C[C@H](CO)[C@@H](O)C2)c(=O)[nH]c1=O | VERO | 377 | 0.8 µg/mL |
| Nc1ccnc(O[C@H]2CO[C@H](CO)[C@@H](O)C2)n1 | E6SM | KOS | >20 µg/mL |
| Nc1nc2c(ncn2COCCO)c(=O)[nH]1 | PRK | B2006 (TK-) | 70 µg/mL |
| O=c1c2ncn(COC(CO)CO)c2nc2[nH]c(-c3ccccc3)cn12 | E6SM | F | 0.005 µg/mL |
| O=c1[nH]c(=O)n([C@H]2C[C@H](O)[C@@H](CO)O2)cc1I | PRK | B2006 (TK-) | >200 µg/mL |
| CC[C@]1(Cl)C(=O)NC(=O)N([C@H]2C[C@H](O)[C@@H](CO)O2)[C@@H]1OC | HFF | E-377 | >50 µM |
| Nc1nc2c(ncn2COC2COP(=O)(O)OC2)c(=O)[nH]1 | VERO |  | 3.35 µM |
| CNc1nc(N)nc2ncn([C@@H]3O[C@H](CO)[C@@H](O)[C@H]3O)c12 | VERO | HF | 320 µg/mL |
| CC=NC(=N)c1nc(-c2cccc(OC)c2)n(COCCO)n1 | E6SM | KOS | 300 µg/mL |
| OC[C@H]1O[C@@H](c2cc(I)c(F)cc2F)C[C@@H]1O | E6SM | KOS/ACV-R | >400 µg/mL |
| C=C(N=CC)c1nc(-c2ccc(C)cc2)n([C@@H]2O[C@H](CO)[C@@H](O)[C@H]2O)n1 | E6SM | KOS | >40 µg/mL |
| CC[C@@]1(Br)C(=O)NC(=O)N([C@H]2C[C@H](O)[C@@H](CO)O2)[C@H]1OC | HFF | E-377 | 0.67 µM |
| C#C[C@@H](O)C1=C[C@@H](n2cnc3c(N)ncnc32)[C@H](O)[C@@H]1O | E6SM | B2006 (TK-) | >400 µg/mL |
| Nc1nc2c(ncn2[C@H]2CO[C@@H](CO)C2)c(=O)[nH]1 | E6SM | B2006 (TK-) | 250 µg/mL |
| O=Cc1cn([C@H]2C[C@H](O)[C@@H](CO)O2)c(=O)[nH]c1=O | PRK | VDX348 | 1 µg/mL |
| O=c1[nH]c(=O)n([C@H]2C[C@H](O)[C@@H](CO)O2)cc1/C=C/Br | E6SM | VMW1837 (TK-/TK+) | >80 µg/mL |
| Cc1cc([C@@H]2C[C@H](O)[C@@H](CO)O2)c(F)cc1Cl | E6SM | VMW 1837 | >400 µg/mL |
| Nc1nc(Cl)c2ncn([C@H]3CO[C@@H](CO)C3)c2n1 | E6SM | B2006 (TK-) | 200 µg/mL |
| Nc1ncnc2c1ncn2C[C@H](O)CO | PRK | McIntyre | >400 µg/mL |
| CC=NC(=N)c1nc(-c2cccc(C)c2)n(Cc2ccccc2)n1 | E6SM | VMW 1837 | >4 µg/mL |
| Nc1ccn([C@@H]2C[C@H](CO)[C@@H](O)[C@@H]2O)c(=O)n1 | VERO | 377 | <32 µg/mL |
| [N-]=[N+]=NCc1cn([C@H]2C[C@H](O)[C@@H](CO)O2)c(=O)[nH]c1=O | PRK | VDX500 | 2 µg/mL |
| CC=NC(=N)c1nc(-c2cccc(C)c2)n(COCCO)n1 | E6SM | KOS | >10 µg/mL |
| Nc1nc2c(ncn2[C@H]2C=C[C@@H](CO)[C@H](O)C2)c(=O)[nH]1 | E6SM | KOS TK- acyclovir-resistant | 1.28 µg/mL |

Repeating the final 4 entries:

SMILES,cells,strain or isolate,value
Nc1ccn([C@@H]2C[C@H](CO)[C@@H](O)[C@@H]2O)c(=O)n1,VERO,377,<32 µg/mL
[N-]=[N+]=NCc1cn([C@H]2C[C@H](O)[C@@H](CO)O2)c(=O)[nH]c1=O,PRK,VDX500,2 µg/mL
CC=NC(=N)c1nc(-c2cccc(C)c2)n(COCCO)n1,E6SM,KOS,>10 µg/mL
Nc1nc2c(ncn2[C@H]2C=C[C@@H](CO)[C@H](O)C2)c(=O)[nH]1,E6SM,KOS TK- acyclovir-resistant,1.28 µg/mL